Anti-infective test results gathered from many reports (values: NIAID ChemDB through PubChem).

Shared fields: toxicity to cultured cells; cells: C8166; read-out: CC50

CCn: concentration that lowers growth or viability of the cells by n%.

{"compound": "O=c1cc(-c2cccc3c2Sc2ccccc2S3)oc(N2CCOCC2)c1", "value": ">30 µM"}
{"compound": "CC(=O)O[C@H]1C[C@H](n2cc(C)c(=O)[nH]c2=O)O[C@@H]1CO", "value": "500 µM"}
{"compound": "CCCCOP(=O)(OCCCC)OC[C@H]1O[C@@H](n2cc(C)c(=O)[nH]c2=O)C[C@@H]1O", "value": ">100 µM"}
{"compound": "CC(C)(C)NC(=O)[C@@H]1C[C@@H]2CCCC[C@@H]2CN1C[C@H](O)CNC(=O)[C@@H]1N[C@@H]([C@H](NC(=O)Cc2ccccc2)C(=O)NCc2ccccc2)SC1(C)C", "value": ">100 µM"}
{"compound": "CC(C)C[C@H]1NC(=O)C(Cc2c[nH]c3c(C45C[C@H]6C(=O)N[C@H](Cc7ccccc7)C(=O)N6[C@H]4Nc4ccccc45)cccc23)NC1=O", "value": ">100 µM"}
{"compound": "Cc1ccc(C)c(CS(=O)(=O)c2ccccn2)c1", "value": "30 µg/mL"}
{"compound": "Cn1c(C=O)cc(=O)n(C)c1=O", "value": "300 µM"}
{"compound": "Nc1cc(Cl)nc2c1ncn2[C@H]1CC[C@@H](CO)O1", "value": ">1000 µM"}
{"compound": "Cc1cn([C@H]2C[C@H](N=[N+]=[N-])[C@@H](COP(=O)(OC[C@H]3O[C@@H](n4cc(C)c(=O)[nH]c4=O)C[C@@H]3N=[N+]=[N-])OCC(F)(F)F)O2)c(=O)[nH]c1=O", "value": "600 µM"}
{"compound": "C[C@@H]1C2[C@H](O)C[C@@]34C=C[C@@](C)(CCC3[C@@]23CC[C@@H]1OC3=O)C4", "value": "111 µM"}
{"compound": "CC[C@H](C)[C@H](NC(=O)[C@@H]1CCCN1P(=O)(OC)C(CC1CCCCC1)NC(=O)OCc1ccccc1)C(=O)NCC(C)C", "value": "16 µM"}
{"compound": "CCCCCCOC(=O)[C@H](C)NP(=O)(OC[C@H]1O[C@@H](n2cc(C)c(=O)[nH]c2=O)C[C@@H]1N=[N+]=[N-])Oc1ccccc1", "value": ">100 µM"}
{"compound": "CCCCOP(=O)(OCCCC)OC[C@H]1O[C@@H](n2cc(C)c(=O)[nH]c2=O)C[C@@H]1OCC", "value": ">100 µM"}
{"compound": "CC[C@H](C)[C@H](NC(=O)[C@@H]1CCCN1[P@@](=O)(OC)[C@H](Cc1ccccc1)NC(=O)OCc1ccccc1)C(=O)NCC(C)C", "value": "5 µM"}
{"compound": "CCOc1cc(/C=C2\\SC(=O)N(CC(=O)c3ccccc3)C2=O)c(Br)cc1OCc1ccc(C(=O)O)cc1", "value": "26.36 µg/mL"}
{"compound": "CC[C@H](C)[C@H](NC(=O)[C@@H](Cc1ccccc1)NP(=O)(OC)C(Cc1ccccc1)NC(=O)OCc1ccccc1)C(=O)NCC(C)C", "value": "2 µM"}
{"compound": "Cc1ccc(C)c(CS(=O)(=O)c2cccc[n+]2[O-])c1", "value": "9.8 µg/mL"}
{"compound": "CC[C@H](C)[C@H](NC(=O)[C@@H]1CCCN1[P@](=O)(OC)[C@H](Cc1ccccc1)NC(=O)OCc1ccccc1)C(=O)NCC(C)C", "value": "25 µM"}
{"compound": "CCCCOP(=O)(OCCCC)OC[C@H]1O[C@@H](n2cc(C)c(=O)[nH]c2=O)C[C@@H]1N=[N+]=[N-]", "value": ">100 µM"}
{"compound": "CCNC(=O)[C@@H](NC(=O)Cc1ccccc1)[C@@H]1N[C@@H](C(=O)NC[C@H](O)CN2C[C@H]3CCCC[C@H]3C[C@H]2C(=O)NC(C)(C)C)C(C)(C)S1", "value": ">100 µM"}
{"compound": "CCC(C)[C@H](NC(=O)[C@@H]1CCCN1[P@@](=O)(OC)[C@@H](Cc1ccccc1)NC(=O)[C@H](CC(N)=O)NC(=O)OC(C)(C)C)C(=O)NCC(C)C", "value": "80 µM"}
{"compound": "CC(=O)O[C@H]1C[C@H](n2cc(C)c(=O)[nH]c2=O)O[C@@H]1COP(=O)(OC[C@H]1O[C@@H](n2cc(C)c(=O)[nH]c2=O)C[C@@H]1OC(C)=O)OCC(Cl)(Cl)Cl", "value": ">1000 µM"}
{"compound": "CCOP(=O)(NCCCCC(=O)OC)OC[C@H]1O[C@@H](n2cc(C)c(=O)[nH]c2=O)C[C@@H]1N=[N+]=[N-]", "value": ">100 µM"}
{"compound": "Nc1ccn([C@@H]2CC[C@H](CO)O2)c(=O)n1", "value": ">23.6 µM"}
{"compound": "COc1cc(OC2O[C@H](COC3O[C@@H](C)[C@H](O)[C@@H](O)[C@H]3O)[C@@H](O)[C@H](O)[C@H]2O)c2c(C)c3c(=O)oc(C)cc3c(OC)c2c1", "value": "100 µg/mL"}
{"compound": "CC(=O)OC[C@H]1O[C@@H](n2cc(C)c(-n3cncn3)nc2=O)C[C@@H]1N=[N+]=[N-]", "value": "80 µM"}
{"compound": "O=[N+]([O-])c1ccc[n+]([O-])c1SCc1ccccc1", "value": "29 µg/mL"}
{"compound": "CCOP(=O)(NCCCCCC(=O)OC)OC[C@H]1O[C@@H](n2cc(C)c(=O)[nH]c2=O)C[C@@H]1N=[N+]=[N-]", "value": ">100 µM"}
{"compound": "CCO[C@H]1C[C@H](n2cc(C)c(=O)[nH]c2=O)O[C@@H]1CO", "value": ">1000 µM"}
{"compound": "COC(=O)[C@H](C)NP(=O)(OC[C@H]1O[C@@H](n2cc(C)c(=O)[nH]c2=O)C[C@@H]1N=[N+]=[N-])OCC(Cl)(Cl)Cl", "value": ">100 µM"}
{"compound": "Cc1ccc(C)c(C(C)S(=O)(=O)c2ccc(C)c[n+]2[O-])c1", "value": "2.8 µg/mL"}
{"compound": "CC(C)(C)NC(=O)[C@@H]1C[C@@H]2CCCC[C@@H]2CN1C[C@@H](O)[C@H](Cc1ccccc1)NC(=O)[C@@H]1CCCS(=O)(=O)C1", "value": "48 µM"}
{"compound": "Cc1cn([C@H]2C[C@H](N=[N+]=[N-])[C@@H](COP(=O)(N[C@@H](C)C(=O)OC3CCCCC3)OCC(Cl)(Cl)Cl)O2)c(=O)[nH]c1=O", "value": ">100 µM"}
{"compound": "O=C(CN1CCCC1)Nc1ccc(Cc2ccc(NC(=O)CN3CCCC3)cc2)cc1", "value": "73.11 µg/mL"}
{"compound": "Cc1cn([C@H]2C[C@H](N=[N+]=[N-])[C@@H](CO)O2)c(=O)nc1Oc1c(F)c(F)c(F)c(F)c1F", "value": "400 µM"}
{"compound": "C=C[C@]1(C)[C@@H](O)CC2=C(CCC3C(C)(C)[C@@H](O)CC[C@]23C)[C@@H]1O", "value": "164 µM"}
{"compound": "Nc1ccnc2c1ncn2[C@H]1CC[C@@H](CO)O1", "value": ">1000 µM"}
{"compound": "CC(=O)OC[C@@H]1OC(Oc2ccc(C(=O)/C=C/c3ccc(O)c(O)c3)c(O)c2O)[C@@H](O)[C@H](OC(C)=O)[C@H]1OC(C)=O", "value": "250 µM"}
{"compound": "CC(=O)OC[C@H]1O[C@@H](n2ccc(-n3cncn3)nc2=O)C[C@@H]1OC(C)=O", "value": ">1000 µM"}
{"compound": "CCCOP(=O)(OCCC)OC[C@H]1O[C@@H](n2cc(C)c(=O)[nH]c2=O)C[C@@H]1OCC", "value": ">100 µM"}
{"compound": "Cc1cc(=O)n(C)c(-c2ccc(C)o2)n1", "value": "950 µM"}
{"compound": "CC(=O)O[C@H]1C[C@H](n2cc(C)c(=O)[nH]c2=O)O[C@@H]1COP(=O)(OC[C@H]1O[C@@H](n2cc(C)c(=O)[nH]c2=O)C[C@@H]1OC(C)=O)OCC(F)(F)F", "value": ">1000 µM"}
{"compound": "OC[C@@H]1CC[C@H](n2cnc3c(NC4CCCC4)ccnc32)O1", "value": "200 µM"}

The last 5 rows once more:

{"compound": "CC(=O)OC[C@H]1O[C@@H](n2ccc(-n3cncn3)nc2=O)C[C@@H]1OC(C)=O", "value": ">1000 µM"}
{"compound": "CCCOP(=O)(OCCC)OC[C@H]1O[C@@H](n2cc(C)c(=O)[nH]c2=O)C[C@@H]1OCC", "value": ">100 µM"}
{"compound": "Cc1cc(=O)n(C)c(-c2ccc(C)o2)n1", "value": "950 µM"}
{"compound": "CC(=O)O[C@H]1C[C@H](n2cc(C)c(=O)[nH]c2=O)O[C@@H]1COP(=O)(OC[C@H]1O[C@@H](n2cc(C)c(=O)[nH]c2=O)C[C@@H]1OC(C)=O)OCC(F)(F)F", "value": ">1000 µM"}
{"compound": "OC[C@@H]1CC[C@H](n2cnc3c(NC4CCCC4)ccnc32)O1", "value": "200 µM"}

Lines come from different laboratories, so protocols vary.